Assay results published in article PMC6456747.
Tags and fusion partners may be left off the protein sequences shown.

Tests used:
[1] = biological target: T1, PhoP-His6 (Salmonella enterica) (UniProt P0DM78); assay: EMSA; conditions: 10 mM Tris pH 7.5, 0.5 mM EDTA, 1 mM MgCl2, 0.5 mM DTT, 50 mM NaCl, 5 ng/ul poly(dI-dC), room temperature 20 min, 15 ul, 80 fmol DNA, 6% native PAGE, recombinant protein, residues 1-224, protein details: C-terminal His6, probe letters rebuilt from the primers and the genome
T1 sequence (looked up): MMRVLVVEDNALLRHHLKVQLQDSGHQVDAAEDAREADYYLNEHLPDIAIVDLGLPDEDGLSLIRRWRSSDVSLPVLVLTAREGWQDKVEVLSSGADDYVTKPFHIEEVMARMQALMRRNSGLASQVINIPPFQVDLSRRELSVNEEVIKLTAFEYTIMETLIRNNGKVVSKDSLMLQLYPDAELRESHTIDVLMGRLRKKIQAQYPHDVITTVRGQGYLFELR

[2] = biological target: T2, PmrA-His6 (Salmonella enterica) (UniProt P36556); assay: EMSA; conditions: 10 mM Tris pH 7.5, 0.5 mM EDTA, 1 mM MgCl2, 0.5 mM DTT, 50 mM NaCl, 5 ng/ul poly(dI-dC), room temperature 20 min, 15 ul, 80 fmol DNA, 6% native PAGE, recombinant protein, residues 1-222, protein details: C-terminal His6, probe letters rebuilt from the primers and the genome
T2 sequence (looked up): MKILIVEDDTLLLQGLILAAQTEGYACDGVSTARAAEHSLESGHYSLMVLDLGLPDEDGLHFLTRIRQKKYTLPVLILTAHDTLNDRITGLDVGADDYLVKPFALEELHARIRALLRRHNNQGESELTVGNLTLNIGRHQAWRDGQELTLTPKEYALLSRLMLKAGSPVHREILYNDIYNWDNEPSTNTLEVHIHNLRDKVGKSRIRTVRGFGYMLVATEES

Row | Sequence | binding result ([1]; 4 uM PhoP + EIIAGlc-His6 (1-32 uM), binding unaltered) | binding result ([1]; 4 uM PhoP, no EIIANtr) | binding result ([2]; 4 uM PmrA + EIIANtr-His6 (1-32 uM), binding unaffected) | binding result ([2]; 4 uM PmrA, no EIIANtr)
1 | AGCACGCTTTATTCCCGCTCCGATTTAATCTTTTAATATATCTATCAGTTACAACATTTCTTGTTATATTATAAGAATAGAATCAACACCACAATTCCAACATAAATATCACCTGTGTTTAGAGAGAATTTACATTCCAAAAAAATAATAACTAACGCAAATATTGAACACGCGATAAAAAAGTCTATTTCGCTATAAAACCCATTATTATTAAGAGTGGTTAACTCTTCGTTGAATAAAAAATGTCAATGACGTTCCATAATTCAGGAGATGAACTTCACAAGTCATTATATATAACAGGAGGTGCTATGAAA (double strand) [pagD promoter] | binds | binds |  | 
2 | CATTAACCTCTCAGGCAGACAGTGCAGCTAACTTAATAGCAATACAATTAAAATGAAATTCCGCAACGGAAGACCAGGCCAGAAACATAAAAACAGCTTTTGGGCATGCATAAAATGCCTTAAACTTTCGGCGAAAGCAAAGCATAATTCCGTTAAAAATTATCTTTTTACTTCACCTTAATTTCTTAATGTTAATTTAATCTTCATCCAGTAGGGTTCAGCTAAATGCGTTAAAAAATAAGCCCTTTTCTATTGCCGAAATATTTGAAAAGCGGCTTTCAATGGCTGAAGGAAAAATGATGTCGGACTTTTTGCCTTTCTCCCGTCCGGCGA (double strand) [pbgP promoter] |  |  | binds | binds
